# In PubChem BioAssay AID540336 (Broad Institute, 2011):
# The chains behind the UniProt entries cited, without tags or fusion partners.
# UniProt Q5AAJ8, whole entry, looked up: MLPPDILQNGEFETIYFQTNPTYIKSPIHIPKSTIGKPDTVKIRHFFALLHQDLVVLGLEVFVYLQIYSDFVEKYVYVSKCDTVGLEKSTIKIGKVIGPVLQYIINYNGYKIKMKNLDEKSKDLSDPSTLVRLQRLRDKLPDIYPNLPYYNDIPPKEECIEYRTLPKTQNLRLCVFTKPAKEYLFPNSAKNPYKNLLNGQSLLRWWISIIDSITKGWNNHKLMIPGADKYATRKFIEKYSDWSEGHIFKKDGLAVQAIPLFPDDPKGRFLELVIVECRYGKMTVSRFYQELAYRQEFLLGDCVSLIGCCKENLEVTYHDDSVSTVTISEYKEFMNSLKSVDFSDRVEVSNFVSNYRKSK
# The entries are a selection whose mix differs from that of the whole data set. Activity calls are given as the source filed them.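 How the source made its calls: active means inhibition of at least 50% in every replicate; inconclusive means best replicate reaches 50% inhibition but some replicates fall short; inactive means the rest.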
# Target: Histone acetyltransferase RTT109 (Candida albicans (strain SC5314 / ATCC MYA-2876)) (UniProt Q5AAJ8)
# Assay: Rtt109-Vps75 histone acetyltransferase blockade – biochemical, ThioGlo CoA-SH fluorescence, plate reader, primary screen (AID 540336)
# Details: purified Rtt109/Vps75, ThioGlo CoA-SH fluorescence, 4 h; at 34.9 µM; hits give high values
row,SMILES,inhibition
1,O=C(/C=C/c1ccccc1)OC1CN2CCC1CC2 (configuration not stated),inactive: -5.87%
2,CN(C)C1(CNC(=O)c2ccc(S(C)(=O)=O)cc2)CCCCC1,inactive: -5.63%
3,Cc1ccc(C(=O)OC2CN3CCC2CC3)cc1 (configuration not stated),inactive: 5.97%
4,CC1CCC(C(C)C)C(OP(=O)(Nc2ccccn2)c2ccccc2)C1 (configuration not stated),active: 52.6%
5,Cc1nn(-c2ccccc2)c2c1P(=O)(N1CCOCC1)N(C)C(c1ccccc1)=N2 (configuration not stated),inactive: 11.3%
6,CN(C(=O)Cc1ccc(Cl)c(Cl)c1)[C@H]1CC[C@@]2(CCCO2)C[C@@H]1N1CCCC1,inactive: -9.15%
7,CN(C)C(=O)c1cc([N+](=O)[O-])cc2c1-c1c(cc([N+](=O)[O-])cc1[N+](=O)[O-])C2=O,inactive: -6%
8,O=[N+]([O-])c1ccc2c(c1)nnn2O,inactive: 0.899%
9,CN(C(=O)Cc1ccccc1)[C@@H]1CC[C@]2(CCCO2)C[C@H]1N1CCCC1,inactive: -4.68%
10,CCOP1(=S)c2c(C)nn(CCC#N)c2N=C(c2ccc(F)cc2)N1C (configuration not stated),inactive: 8.93%
11,N#CCCN(C(=O)COC(=O)C(O)(c1ccccc1)c1ccccc1)c1ccc(F)cc1,inactive: -4.98%
12,NC(=O)Nc1ccc([As](=O)(O)O)cc1,inactive: -4.79%
13,O=C(O)COc1ccc([As](=O)(O)O)cc1[N+](=O)[O-],inactive: 7.74%
14,Nc1ccccc1[As](=O)(O)c1ccccc1,inactive: -1.77%
15,CS(=O)(=O)c1cc([N+](=O)[O-])c2no[n+]([O-])c2c1,inactive: 42.3%
16,O=P(Nc1nccs1)(c1ccccc1)c1nc2ccccc2s1 (configuration not stated),inactive: -0.818%
17,O=P(Nc1nccs1)(Oc1ccccc1)Oc1ccccc1,inactive: 23.8%
18,CCOP1(=S)c2c(C)nn(CCC#N)c2N=C(c2ccccc2F)N1C (configuration not stated),inactive: -0.44%
19,COc1cc(C2NCCC3(OCCO3)C2(C)C)cc(OC)c1OC (configuration not stated),inactive: 0.423%
20,CCCOP(=S)(Nc1nc(N)cc(=O)[nH]1)OCCC,inactive: 2.43%
21,Nc1cccc2c([As](=O)(O)O)cccc12,inactive: -1.03%

row,SMILES,inhibition
1,Cc1ccc(NCCc2c([N+](=O)[O-])cc([N+](=O)[O-])cc2[N+](=O)[O-])cc1,inactive: 1.19%
2,O=[As](O)(c1cccc(O)c1)c1cccc(O)c1,inactive: -0.45%
3,Cc1cccc(OCC(=O)OC2CN3CCC2CC3)c1 (configuration not stated),inactive: 19.1%
4,CS(=O)(=O)c1ccc(Cl)c(NC(=O)COC(=O)C(O)(c2ccccc2)c2ccccc2)c1,inactive: 9.12%
5,COc1cc(C(=O)NCC2(N3CCOCC3)CCCCC2)cc(Cl)c1OC(C)C,inactive: 1.06%
6,O=[As](O)(O)c1cccnc1,inactive: -6.15%
7,O=C(OC1CN2CCC1CC2)c1ccc(Cl)cc1 (configuration not stated),inactive: -3.07%
8,COc1ccc(N/C(=N/P(=O)(N2CCOCC2)N2CCOCC2)N2CCOCC2)cc1,inactive: -6.07%
9,O=[N+]([O-])c1cc(Oc2ccc([N+](=O)[O-])cc2C(F)(F)F)cc([N+](=O)[O-])c1,inactive: 6.1%
10,COc1cc(I)ccc1[As](=O)(O)O,inactive: -16.6%
11,COc1ccc2nc(NP(=O)(c3ccccc3)c3ccccc3)sc2c1,inactive: -0.214%
12,O=P1(N(CCCl)CCCl)Nc2ccccc2N1,inactive: -6.14%
13,O=P1(N(CCCl)CCCl)OCCCN1CCCl (configuration not stated),inactive: 12.6%
14,O=C(OC1CN2CCC1CC2)C12CC3CC(CC(C3)C1)C2 (configuration not stated),inactive: -8.11%
15,Cc1c2c(nc3ccccc13)SC(C(Cl)Cl)C2 (configuration not stated),inactive: 9.04%
16,O=C(OC1CN2CCC1CC2)c1cccc2[nH]cnc12 (configuration not stated),inactive: 3.52%
17,CCN(CC)C(=S)SC(NC=O)C(Cl)(Cl)Cl (configuration not stated),inactive: -3.67%
18,CC(C)NC(=O)NP(=O)(Oc1ccccc1)Oc1ccccc1,inactive: 19.8%
19,CC(C)c1ccc(OP(=O)(Nc2ccccn2)Oc2ccccc2F)cc1 (configuration not stated),inactive: 4.28%
20,COC(=O)C1(C)COP(=O)(N2CCCCCC2)OC1 (configuration not stated),inactive: -3.33%
21,ClCCSc1nnc(-c2cccnc2)o1,inactive: -10.7%

row,SMILES,inhibition
1,Cc1ccc2nc3c(c(C)c2c1)CC(C(Cl)Cl)S3 (configuration not stated),inactive: -15.6%
2,Cc1ccc(OP(=O)(Nc2ccc([N+](=O)[O-])cn2)Oc2ccc(C)cc2)cc1,inactive: 4.62%
3,COc1cc(C(=O)NCC2(N3CCOCC3)CCCCC2)ccc1OCC(C)C,inactive: -6.75%
4,O=[N+]([O-])c1ccc(-c2cc([N+](=O)[O-])c(O)c([N+](=O)[O-])c2)cc1,inactive: 6.65%
5,O=[As](O)(c1ccc(O)cc1)c1ccccc1O,inactive: -4.01%
6,C[As](=O)(O)c1cccc(C(=O)O)c1,inactive: -2.41%
7,O=[N+]([O-])c1ccc(Nc2ccc(Oc3ccc([N+](=O)[O-])cc3[N+](=O)[O-])cc2)c([N+](=O)[O-])c1,inactive: 2.23%
8,Cc1cc(SC(NC=O)C(Cl)(Cl)Cl)ncn1 (configuration not stated),inactive: 17.7%
9,O=P(Nc1ccccn1)(c1cccc2ccccc12)c1cccc2ccccc12,inactive: 30%
10,CCOC(=O)Nc1cccc([As](=O)(O)O)c1,inactive: -5.5%
11,Cc1cc(SC(NC(=O)c2ccccc2)C(Cl)(Cl)Cl)nc(C(C)C)n1 (configuration not stated),inactive: -9.72%
12,CCCCOc1ccc(C(=O)NCC2(N3CCCCC3)CCCCC2)cc1OC,inactive: 3.67%
13,CC1CCNP(=O)(N(CCCl)CCCl)O1 (configuration not stated),inactive: -4.06%
14,CCOC(=O)Nc1ccc([As](=O)(O)O)c(O)c1,inactive: -4.37%
15,CCC(C)N(CC(C)C)C(=S)SC(NC(C)=O)C(Cl)(Cl)Cl (configuration not stated),inactive: -7.73%
16,CCOC(=O)c1ccc(NC(=O)C(C)(CCl)SC)cc1 (configuration not stated),inactive: -10.7%
17,O=C(OC1CN2CCC1CC2)c1cccc([N+](=O)[O-])c1 (configuration not stated),inactive: 2.87%
18,O=C(Nc1ccncc1[N+](=O)[O-])c1ccc([N+](=O)[O-])cc1[N+](=O)[O-],inactive: -15.6%
19,O=C(COc1ccccc1)OC1CN2CCC1CC2 (configuration not stated),inactive: -0.54%
20,COP1(=S)c2c(C)nn(CCC#N)c2N=C(c2ccc(F)cc2)N1C (configuration not stated),inactive: 8.77%
